# B1: ANR-GST (His6-ANR-GST) (other)
# chain: MHHHHHHGSGTGSGELGRLVYLLDGPGYDPIHSDGTGSSPILGYWKIKGLVQPTRLLLEYLEEKYEEHLYERDEGDKWRNKKFELGLEFPNLPYYIDGDVKLTQSMAIIRYIADKHNMLGGCPKERAEISMLEGAVLDIRYGVSRIAYSKDFETLKVDFLSKLPEMLKMFEDRLCHKTYLNGDHVTHPDFMLYDALDVVLYMDPMCLDAFPKLVCFKKRIEAIPQIDKYLKSSKYIAWPLQGWQATFGGGDHPPKSDLVPR
# notes: also called ANR-GST fusion
# Target: NS3a (inactive), Avi-His6-NS3a S139A (hepatitis C virus)
# Test: pulldown: biotinylated NS3a inactive on streptavidin-agarose beads, 5 µM ANR-GST, anti-GST immunoblot; DMSO against 10 µM danoprevir
binder,measurement,value
B1,binding result,binds

# Source: patent US20220025003A1 (University of Washington, published 2022)
